Pooled drug test results. Numbers come from NIAID ChemDB, via PubChem.

Shared fields: enzyme or target tests; species: HIV-1; protein: Reverse transcriptase; measure: IC50

ICn is the concentration giving n% inhibition.

smiles | strain or isolate | method | changes | value
CC(C)(NC(=O)c1ccc(NC(=O)CSc2nnnn2-c2ccc(C3CC3)cc2Cl)c(Cl)c1)C(=O)O |  | PicoGreen / fluorescence | RT-K103 Y181C | <1 µM
CCN1c2ncc(CCOc3ccc(/C=C/C(=O)O)c4ccccc34)cc2C(=O)Nc2c(C)ccnc21 |  | nucleotide incorporation / radiometric | RT-K103N Y181C | 0.1–1 µM
CCN1c2ncc(CCOc3ccc(-c4ccc(CC(=O)O)cc4O)cc3C)cc2C(=O)N(C)c2cccnc21 | IIIB | nucleotide incorporation / radiometric |  | <0.05 µM
CC(C)(O)C#Cc1ccc(NC(=O)CSc2nnnn2-c2cc3c(cc2Cl)CCC3)c(Cl)c1 | WT | PicoGreen / fluorescence |  | <1 µM
CCN1c2ncc(CCOc3ccc(NC(=O)CCC(=O)O)cc3C)cc2C(=O)N(C)c2cccnc21 | IIIB | nucleotide incorporation / radiometric |  | <0.05 µM
COC(=O)Cc1cccc(-c2ccc(NC(=O)CSc3nnnn3-c3ccc(C)cc3Cl)c(Cl)c2)c1 |  | PicoGreen / fluorescence | RT-K103 Y181C | <1 µM
c1coc(-c2nnc3c4ccccc4c(N4CCc5ccccc5C4)nn23)c1 | IIIB | RT activity / fluorescence |  | 0.53 µM
Cc1ccc(-c2nnsc2SCC(=O)Nc2ccc(-c3ccc(CC(=O)O)cc3)cc2Cl)c(Cl)c1 | WT | PicoGreen / fluorescence |  | <1 µM
CCN1c2ncc(CCOc3ccc(/C=C(\C)C(=O)O)c4ccccc34)cc2C(=O)N(C)c2cccnc21 |  | nucleotide incorporation / radiometric | RT-V106A | >1 µM
CC(C)(C#Cc1ccc(NC(=O)CSc2nnnn2-c2cc(C(F)(F)F)cc(C3CC3)c2Cl)c(Cl)c1)C(=O)O |  | PicoGreen / fluorescence | RT-K103 Y181C | <1 µM
Cc1nnc2c3ccccc3c(N3CCc4ccc(C#N)cc4C3)nn12 | 98US_MSC5016 | RT activity / fluorescence |  | 4.28 µM
CCN1c2ncc(CCOc3ccc(-c4nc(C(=O)O)cs4)cc3)cc2C(=O)N(C)c2cccnc21 | IIIB | nucleotide incorporation / radiometric |  | <0.05 µM
CC(C)(C)c1cc(Cl)c(-n2nnnc2SCC(=O)Nc2ccc(-c3ccc(CC(=O)O)cc3)cc2Cl)c(Cl)c1 | WT | PicoGreen / fluorescence |  | <1 µM
CCN1c2ncc(CCOc3ccc(CC(=O)O)c4ccccc34)cc2C(=O)N(C)c2cccnc21 |  | nucleotide incorporation / radiometric | RT-Y188L | >1 µM
CCN1c2ncc(CCOc3ccc(NC(=O)/C=C/C(=O)O)cc3C)cc2C(=O)N(C)c2cccnc21 | IIIB | nucleotide incorporation / radiometric | RT-K103N Y181C | 0.05–0.1 µM
COC(=O)c1ccc2c(c1)CN(c1nn3c(C)nnc3c3ccccc13)CC2 | 98US_MSC5016 | RT activity / fluorescence |  | 0.62 µM
CCN1c2ncc(CCOc3ccc(S(=O)(=O)NCC(=O)O)cc3C)cc2C(=O)N(C)c2cccnc21 | IIIB | nucleotide incorporation / radiometric | RT-K103N Y181C | <0.05 µM
CCN1c2ncc(CCOc3ccc(/C=C(\C)C(=O)O)c4ccccc34)cc2C(=O)N(C)c2ccc(C)nc21 |  | nucleotide incorporation / radiometric | RT-V106A | >1 µM
COc1nnc2c3ccccc3c(N3CCc4ccc(N)cc4C3)nn12 | KER2008 | RT activity / fluorescence |  | 4.44 µM
CC(C)(C#Cc1ccc(NC(=O)CSc2nnnn2-c2ccc(C3CC3)cc2Cl)c(Cl)c1)NC(=O)CN1CCC(C(=O)O)CC1 | WT | PicoGreen / fluorescence |  | <1 µM
CCN1c2ncc(CCOc3ccc(NC(=O)CC(C)(C)C(=O)O)c4ccccc34)cc2C(=O)N(C)c2cccnc21 |  | nucleotide incorporation / radiometric | RT-Y188L | >1 µM
CCN1c2ncc(CCOc3ccc(-c4cccc(CC(=O)O)c4)cc3C)cc2C(=O)N(C)c2cccnc21 | IIIB | nucleotide incorporation / radiometric | RT-K103N Y181C | <0.05 µM
CC(=O)NC(C(=O)Nc1ccc(NC(=O)CSc2nnnn2-c2ccc(C(C)(C)C)cc2Cl)c(Cl)c1)c1ccccc1 |  | PicoGreen / fluorescence | RT-K103 Y181C | <1 µM
CCN1c2ncc(CCOc3ccc(-c4ccc(CC(=O)O)cc4F)cc3C)cc2C(=O)N(C)c2cccnc21 | IIIB | nucleotide incorporation / radiometric | RT-K103N Y181C | <0.05 µM
O=C(CSc1nnnn1-c1ccc(C2CC2)cc1Cl)Nc1ccc(C(=O)NS(=O)(=O)c2ccccc2)cc1Cl | WT | PicoGreen / fluorescence |  | <1 µM
Cc1cc(-c2ccc[n+]([O-])c2)ccc1OCCc1cnc2c(c1)C(=O)N(C)c1cccnc1N2C1CC1 | IIIB | nucleotide incorporation / radiometric |  | <0.05 µM
CCN1c2ncc(CCOc3ccc4cc(CC(=O)NN)ccc4c3)cc2C(=O)N(C)c2cccnc21 |  | nucleotide incorporation / radiometric | RT-V106A | <0.1 µM

An empty or dashed field is not shown. Two numbers with a dash give a range or band. Lines come from different laboratories, so protocols vary.